Results of unrelated studies side by side (data: NIAID ChemDB).

All rows: growth or infection tests; organism: HIV-1

Neighbouring rows are from separate reports. ECn: concentration that inhibits the pathogen or its effect by n%. An empty or dashed field is not shown.

smiles | setting | read by | endpoint | cells | strain | changes | result
CCc1cc(NCc2nc3c(Cl)ccc(Cl)c3o2)c(=O)[nH]c1C |  | p24 | EC50 | MT-4 | NL4-3 | RT-V106A | 0.1 µM
COc1ccc2c(c1)N(C(=O)OC(C)C)[C@@H](CSC)C(=S)N2 |  | p24 | EC50 | CEM | IIIB | RT-Y181C | 0.002 µg/mL
Cc1cn([C@@H]2C[C@@H](N=[N+]=[N-])[C@H](COP(N)(=O)OC[C@H]3O[C@@H](n4cc(C)c(=O)[nH]c4=O)C[C@@H]3N=[N+]=[N-])O2)c(=O)[nH]c1=O |  | RT activity | EC50 | CEM + CEM-SS | LAI |  | 0.014 µM
Cc1cn([C@H]2C[C@H](N=[N+]=[N-])[C@@H](COC(=O)CCC(=O)O)O2)c(=O)[nH]c1=O |  | cytopathic effect / MTT | EC50 | MT-4 | IIIB |  | 0.015 µg/mL
CCn1nc(Cc2ccc(OC3CC3)cc2)cc1C1CCN(C[C@H]2CN([C@@H](C(=O)O)C3CCCCC3)C[C@@H]2c2cccc(F)c2)CC1 |  | β-galactosidase | EC90 | HeLa | BaL |  | <0.00014 µM
Cc1cc2c(C(C)C)c(O)c(O)c(C=O)c2c(O)c1-c1c(C)cc2c(C(C)C)c(O)c(O)c(C=O)c2c1O |  | antigen | EC50 | MT-4 | LAV-A |  | 1 µM
COc1ccc(N2CCN(CC(=O)OC[C@@H]3CC[C@H](n4cnc5c(=O)[nH]cnc54)O3)CC2)cc1 |  | cytopathic effect / MTT | EC50 | MT-4 | IIIB |  | 1.87 µM
COc1ccc(/C=N/NC(=O)c2csc(N3N=C(c4ccccc4)CC3c3ccc(Cl)cc3)n2)cc1 |  | MTT / absorbance | EC50 | MT-4 | IIIB |  | >125 µM
CCn1nc(Cc2ccc(S(=O)(=O)c3ccccc3)cc2)cc1C1CCN(C[C@H]2CN([C@@H](C(=O)O)C(C)(C)C)C[C@@H]2c2cccc(F)c2)CC1 | 50% human serum | β-galactosidase | EC90 | HeLa | BaL |  | 0.0037 µM
O=C(CN1CCN(c2ccc(Cl)cc2)CC1)OC[C@@H]1CC[C@H](n2cnc3c(=O)[nH]cnc32)O1 |  | cytopathic effect / MTT | EC50 | MT-4 | IIIB |  | 0.64 µM
O=C(N/N=C/c1ccc(O)cc1)c1csc(N2N=C(c3ccccc3)CC2c2ccc(Cl)cc2)n1 |  | MTT / absorbance | EC50 | MT-4 | IIIB |  | >17.75 µM
Cc1cn([C@H]2C[C@H](N=[N+]=[N-])[C@@H](CO)O2)c(=O)[nH]c1=O |  | cytopathic effect / XTT | EC50 | MT-2 | IIIB |  | 0.04 µM
COc1cc(/C=N/NC(=O)c2csc(N3N=C(c4ccccc4)CC3c3ccc(Cl)cc3)n2)ccc1O |  | MTT / absorbance | EC50 | MT-4 | IIIB |  | >60.1 µM
CC(C)C[C@H](NC(=O)[C@H](CC(=O)O)NC(=O)[C@@H](N)Cc1ccc(O)cc1)C(=O)N[C@@H](CC(=O)O)C(=O)N[C@@H](Cc1ccc(O)cc1)C(=O)N[C@@H](Cc1ccc(O)cc1)C(=O)O |  | syncytia | EC50 | C8166 | GUN1 |  | <200 µg/mL
O=C(N/N=C/c1cc(Br)ccc1O)c1csc(N2N=C(c3ccccc3)CC2c2ccc(Cl)cc2)n1 |  | MTT / absorbance | EC50 | MT-4 | IIIB |  | >125 µM
CC[C@H](C)[C@H](C(=O)O)N1C[C@H](CN2CCC(c3cc(Cc4ccc(OC)c(OC)c4)nn3CC)CC2)[C@@H](c2cccc(F)c2)C1 |  | p24 | EC95 | PBMC | BaL |  | 0.0055 µM
CC(C)[C@H](NC(=O)c1ccc2ccccc2n1)C(=O)N[C@@H](Cc1ccccc1)[C@H](O)CN1CC[C@@H](OCc2ccncc2)C[C@H]1C(=O)NC(C)(C)C |  | p24 / ELISA / antigen | EC50 | PBMC | VR1372 |  | 0.004 µM
Cc1cn([C@H]2C[C@H](N=[N+]=[N-])[C@@H](CO)O2)c(=O)[nH]c1=O |  | p24 | EC50 | PBMC | IIIB |  | 0.011 µg/mL
O=C(N/N=C/c1ccc(OCc2ccccc2)cc1)c1csc(N2N=C(c3ccccc3)CC2c2ccc(Cl)cc2)n1 |  | MTT / absorbance | EC50 | MT-4 | IIIB |  | >125 µM
Cc1cn([C@H]2C[C@H](N=[N+]=[N-])[C@@H](COC(=O)CCC(=O)OC[C@H]3O[C@@H]4O[C@H]5[C@H](O)[C@@H](O)[C@@H](O[C@H]6[C@H](O)[C@@H](O)[C@@H](O[C@H]7[C@H](O)[C@@H](O)[C@@H](O[C@H]8[C@H](O)[C@@H](O)[C@@H](O[C@H]9[C@H](O)[C@@H](O)[C@@H](O[C@H]%10[C@H](O)[C@@H](O)[C@@H](O[C@H]3[C@H](O)[C@H]4O)O[C@@H]%10CO)O[C@@H]9CO)O[C@@H]8CO)O[C@@H]7CO)O[C@@H]6CO)O[C@@H]5CO)O2)c(=O)[nH]c1=O |  | cytopathic effect / MTT | EC50 | MT-4 | IIIB |  | 0.018 µg/mL
CC[C@H](C)[C@H](C(=O)O)N1C[C@H](CN2CCC(c3cc(Cc4ccc(OC(C)C)cc4)nn3CC)CC2)[C@@H](c2cccc(F)c2)C1 | 50% human serum | β-galactosidase | EC50 | HeLa | BaL |  | <0.033 µM
CCN[C@H]1CO[C@@H]2OCC[C@H](OC(=O)N[C@@H](Cc3cccc(OC)c3)[C@H](O)CN(CC(C)C)S(=O)(=O)c3ccc4nc(NC(C)C)sc4c3)[C@@H]21 |  | p24 / luminescence | EC50 | MT-4 | NL4-3 | L10F L33I M36I M46I I54V K55R I62V L63P A71V G73S V82T | 0.003 µM
Cc1cn([C@H]2C[C@H](N=[N+]=[N-])[C@@H](CO)O2)c(=O)[nH]c1=O |  | cytopathic effect / MTT | EC50 | MT-4 | IIIB |  | 0.017 µM
COc1cccc(/C=N/NC(=O)c2csc(N3N=C(c4ccccc4)CC3c3ccc(Cl)cc3)n2)c1O |  | MTT / absorbance | EC50 | MT-4 | IIIB |  | >125 µM
Cc1cc2c(C(C)C)c(O)c(O)c3c(O)oc(/c1=c1/c(C)cc4c(C(C)C)c(=O)c(=O)c5c(O)oc1c45)c23 |  | antigen | EC50 | MT-4 | LAV-A |  | 63 µM
CC[C@H](C)[C@H](C(=O)O)N1C[C@H](CN2CCC(c3cc(Cc4cccc(C#N)c4)nn3CC)CC2)[C@@H](c2cccc(F)c2)C1 | 50% human serum | β-galactosidase | EC90 | HeLa | BaL |  | 0.011 µM
CCCCCCCCCCCCCC(=O)OC[C@@H](COP(=O)(O)OC[C@@H]1CC[C@H](n2cc(C)c(=O)[nH]c2=O)O1)OC(=O)CCCCCCCCCCCCC |  | plaque count | EC50 | HeLa + HELA CD4+ |  |  | 25 µM
CCCOc1ccc(Cc2cc(C3CCN(C[C@H]4CN([C@@H](C(=O)O)[C@H](C)CC)C[C@@H]4c4cccc(F)c4)CC3)n(CC)n2)cc1 |  | β-galactosidase | EC90 | HeLa | BaL |  | 0.0012 µM
COc1ccc(S(=O)(=O)N(CC(C)C)C[C@@H](O)[C@H](Cc2ccccc2)NC(=O)O[C@H]2CCO[C@H]3OC[C@H](O)[C@H]32)cc1 |  | p24 / luminescence | EC50 | MT-4 | NL4-3 |  | 0.0035 µM
Nc1ccn([C@H]2CC[C@@H](CO)O2)c(=O)n1 |  | cytopathic effect / MTT | EC50 | MT-4 | IIIB |  | 0.03 µg/mL
O=C(N/N=C/c1ccccc1[N+](=O)[O-])c1csc(N2N=C(c3ccccc3)CC2c2ccc(Cl)cc2)n1 |  | MTT / absorbance | EC50 | MT-4 | IIIB |  | >125 µM
CC[C@@H](C)[C@H](C(=O)O)N1C[C@H](CN2CCC(c3cc(Cc4cc(C(F)(F)F)cc(C(F)(F)F)c4)nn3CC)CC2)[C@@H](c2cccc(F)c2)C1 |  | β-galactosidase | EC90 | HeLa | BaL |  | 0.033 µM
CCOC(=O)c1csc(N2N=C(c3ccccc3)CC2c2ccc(Cl)cc2)n1 |  | MTT / absorbance | EC50 | MT-4 | IIIB |  | >11.51 µM
C=C[C@]1(C)COC(=O)[C@@]12O[C@]1(c3ccccc3)[C@@H]3C(C)=CC[C@H]([C@H](C)CCC=C(C)C)[C@@H]3[C@@H]1C2=O |  | p24 | EC50 | H9 | IIIB |  | 0.798 µg/mL
CC(C)CN(C[C@@H](O)[C@H](Cc1ccccc1)NC(=O)O[C@H]1CCOC1)S(=O)(=O)c1ccc(N)cc1 |  | p24 / luminescence | EC50 | MT-4 | NL4-3 | L10I I15V K20R L24I V32I M36I M46I I54V I62V L63P K70Q V82A L88M | >1 µM
Cc1cn([C@@H]2O[C@H](CO[Si](C)(C)C(C)(C)C)C3(OS(=O)(=O)C=C3N)[C@H]2O[Si](C)(C)C(C)(C)C)c(=O)n(C)c1=O |  | p24 | EC50 | CEM | RTMC (RT D67N K70R T215F K219Q) | RT-D67N K70R T215F K219Q | 0.12 µg/mL
CC[C@@H](C)[C@H](C(=O)O)N1C[C@H](CN2CCC(c3cc(Cc4ccc(OCc5ccccc5)cc4)nn3CC)CC2)[C@@H](c2cccc(F)c2)C1 | 50% human serum | β-galactosidase | EC50 | HeLa | BaL |  | <0.1 µM
CC(C)=CCN1Cc2cc(Cl)cc3[nH]c(=S)n(c23)C[C@@H]1C |  | p24 | EC50 | CEM | IIIB | RT-M184I | 0.02 µg/mL
CCN[C@H]1CO[C@@H]2OCC[C@H](OC(=O)N[C@@H](Cc3ccccc3)[C@H](O)CN(CC(C)C)S(=O)(=O)c3ccc4nc(NC5CC5)sc4c3)[C@@H]21 |  | p24 / luminescence | EC50 | MT-4 | NL4-3 | L10F V32I L33F M46L I54M A71V | 0.0037 µM
Cc1ccnc2c1NC(=O)c1cccnc1N2C1CC1 |  | p24 | EC50 | CEM | IIIB | RT-K103N | 0.5 µg/mL
CC(C)OC(=O)OCOP(=O)(CO[C@H](C)Cn1cnc2c(N)ncnc21)OCOC(=O)OC(C)C |  | luciferase / reporter gene | EC50 | TZM-bl | NL4-3 |  | 0.00119 µM
CC[C@H](C)[C@H](C(=O)O)N1C[C@H](CN2CCC(c3cc(Cc4cc(C(F)(F)F)cc(C(F)(F)F)c4)nn3CC)CC2)[C@@H](c2cccc(F)c2)C1 |  | β-galactosidase | EC50 | HeLa | BaL |  | <0.011 µM
O=C(CN1CCN(Cc2ccccc2)CC1)OC[C@@H]1CC[C@H](n2cnc3c(=O)[nH]cnc32)O1 |  | cytopathic effect / MTT | EC50 | MT-4 | IIIB |  | 2.2 µM
O=C(N/N=C/c1ccc(Cl)cc1Cl)c1csc(N2N=C(c3ccccc3)CC2c2ccc(Cl)cc2)n1 |  | MTT / absorbance | EC50 | MT-4 | IIIB |  | >94.9 µM

For reference, 6 entries again:

{"smiles": "CCCOc1ccc(Cc2cc(C3CCN(C[C@H]4CN([C@@H](C(=O)O)[C@H](C)CC)C[C@@H]4c4cccc(F)c4)CC3)n(CC)n2)cc1", "read by": "β-galactosidase", "endpoint": "EC90", "cells": "HeLa", "strain": "BaL", "result": "0.0012 µM"}
{"smiles": "COc1ccc(/C=N/NC(=O)c2csc(N3N=C(c4ccccc4)CC3c3ccc(Cl)cc3)n2)cc1", "read by": "MTT / absorbance", "endpoint": "EC50", "cells": "MT-4", "strain": "IIIB", "result": ">125 µM"}
{"smiles": "CC(C)=CCN1Cc2cc(Cl)cc3[nH]c(=S)n(c23)C[C@@H]1C", "read by": "p24", "endpoint": "EC50", "cells": "CEM", "strain": "IIIB", "changes": "RT-M184I", "result": "0.02 µg/mL"}
{"smiles": "CCn1nc(Cc2ccc(OC3CC3)cc2)cc1C1CCN(C[C@H]2CN([C@@H](C(=O)O)C3CCCCC3)C[C@@H]2c2cccc(F)c2)CC1", "read by": "β-galactosidase", "endpoint": "EC90", "cells": "HeLa", "strain": "BaL", "result": "<0.00014 µM"}
{"smiles": "O=C(CN1CCN(Cc2ccccc2)CC1)OC[C@@H]1CC[C@H](n2cnc3c(=O)[nH]cnc32)O1", "read by": "cytopathic effect / MTT", "endpoint": "EC50", "cells": "MT-4", "strain": "IIIB", "result": "2.2 µM"}
{"smiles": "Cc1cc2c(C(C)C)c(O)c(O)c(C=O)c2c(O)c1-c1c(C)cc2c(C(C)C)c(O)c(O)c(C=O)c2c1O", "read by": "antigen", "endpoint": "EC50", "cells": "MT-4", "strain": "LAV-A", "result": "1 µM"}